# Measured values published in publication PMC4792379, “Time-Resolved Visualisation of Nearly-Native Influenza A Virus Progeny Ribonucleoproteins and Their Individual Components in Live Infected Cells” (2016).
# Biological target: virus-encoded ribonucleoproteins (vRNPs) of the WSN-wt influenza A virus (influenza A virus A/WSN/33 (H1N1)), P15682
# Experiment: proximity ligation
# Details: remark: other sources report otherwise
binder,measurement,value
"NP-mCherry fusion protein (influenza A virus nucleoprotein fused to mCherry), P15682 1-498 (natural protein) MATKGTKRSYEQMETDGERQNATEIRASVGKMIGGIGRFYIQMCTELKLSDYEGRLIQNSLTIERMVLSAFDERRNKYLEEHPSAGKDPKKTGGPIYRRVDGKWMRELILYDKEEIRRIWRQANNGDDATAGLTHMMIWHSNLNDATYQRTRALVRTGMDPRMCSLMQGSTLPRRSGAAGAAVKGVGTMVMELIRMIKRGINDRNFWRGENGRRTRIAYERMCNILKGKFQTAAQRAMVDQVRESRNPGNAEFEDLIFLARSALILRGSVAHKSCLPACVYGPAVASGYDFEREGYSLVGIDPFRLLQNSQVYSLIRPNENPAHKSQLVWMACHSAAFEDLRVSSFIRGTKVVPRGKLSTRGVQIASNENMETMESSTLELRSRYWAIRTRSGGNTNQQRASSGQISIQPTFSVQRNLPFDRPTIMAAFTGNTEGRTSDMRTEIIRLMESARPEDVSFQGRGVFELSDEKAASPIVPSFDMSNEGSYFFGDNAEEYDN",PLA spots per cell,147 spots/cell
